Values of other authors in patent publication US9168275B2 (priority 2000, dated 2015).

Test system: bacteria
Conditions: cited from earlier work

ramoplanin
Cross-resistance with vancomycin: not cross-resistant | Resistance engendered in bacteria: very little to no resistance
